Activity calls are given as the source filed them. The rule behind the calls is not given here.
The compounds below were run against T1, cAMP-specific 3',5'-cyclic phosphodiesterase 4B (Crotalus adamanteus) (UniProt J3SE37) (assay: Inhibition of snake venom phosphodiesterase using bis-(para-nitrophenyl)phosphate as substrate at 0.1 mM after 30 min by spectrophotometric analysis). Conditions: Serpentes.
T1 sequence (whole entry): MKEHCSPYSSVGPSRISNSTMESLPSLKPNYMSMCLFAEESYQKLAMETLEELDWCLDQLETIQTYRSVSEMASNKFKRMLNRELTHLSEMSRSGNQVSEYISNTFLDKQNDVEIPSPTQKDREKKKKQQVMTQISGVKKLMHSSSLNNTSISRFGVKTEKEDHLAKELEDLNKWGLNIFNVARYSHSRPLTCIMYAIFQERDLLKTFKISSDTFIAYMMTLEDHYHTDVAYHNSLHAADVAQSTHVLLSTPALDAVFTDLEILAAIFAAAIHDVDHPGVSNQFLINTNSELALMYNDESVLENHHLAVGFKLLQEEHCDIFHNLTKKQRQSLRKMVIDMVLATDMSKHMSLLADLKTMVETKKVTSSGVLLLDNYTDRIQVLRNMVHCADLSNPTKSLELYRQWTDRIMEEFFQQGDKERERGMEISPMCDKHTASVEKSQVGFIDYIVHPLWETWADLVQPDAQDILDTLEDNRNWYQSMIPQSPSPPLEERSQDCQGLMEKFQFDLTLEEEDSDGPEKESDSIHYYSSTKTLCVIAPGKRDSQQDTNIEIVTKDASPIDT
For COc1cc(-c2cc(-c3ccc(-n4ccnc4)cc3)nc(N)n2)ccc1OO, the inhibition was “inactive”.
In the case of COc1cccc(-c2cc(-c3ccc(-n4ccnc4)cc3)nc(N)n2)c1, the inhibition is reported as 22.4%.
Nc1nc(-c2ccc(Br)cc2)cc(-c2ccc(-n3ccnc3)cc2)n1 showed an inhibition of 9.2%.
With Nc1nc(-c2ccc(F)cc2)cc(-c2ccc(-n3ccnc3)cc2)n1 the inhibition was “inactive”.
For Nc1nc(-c2ccc(-n3ccnc3)cc2)cc(-c2cc(Cl)ccc2Cl)n1, the inhibition was “inactive”.
Compound Nc1nc(-c2ccc(I)cc2)cc(-c2ccc(-n3ccnc3)cc2)n1 has an inhibition of 11.7%.

These compounds were tested against T1, cAMP-specific 3',5'-cyclic phosphodiesterase 4B (Crotalus adamanteus) (assay: Inhibition of snake venom phosphodiesterase using bis-(para-nitrophenyl)phosphate as substrate at 0.2 mM after 30 min by spectrophotometric analysis). Conditions: Serpentes.
For Nc1nc(-c2ccccc2)cc(-c2ccc(-n3ccnc3)cc2)n1, the inhibition was “inactive”.
For Nc1nc(-c2ccc(Cl)cc2)cc(-c2ccc(-n3ccnc3)cc2)n1, the inhibition was “inactive”.
In the case of COc1ccc(-c2cc(-c3ccc(-n4ccnc4)cc3)nc(N)n2)cc1, the inhibition is reported as 12%.
Nc1nc(-c2ccc(-n3ccnc3)cc2)cc(-c2ccc(Cl)c(Cl)c2Cl)n1 showed an inhibition of 12%.
With Nc1nc(-c2ccc(-n3ccnc3)cc2)cc(-c2ccc(Cl)cc2Cl)n1 the inhibition was “inactive”.
